Test system: norovirus VLPs (GII.4, GII.3, GII.17)
Assay: Appearance frequency analysis of sequences after cDNA display in vitro selection against VLPs
Conditions: among 3447 peptide aptamer sequences obtained after the in vitro selection cycles

Point of comparison: “159 (SVVSCVCRAP; Designed peptide) [compound 159]”, Appearance frequency 14. Against it:
- 3 (VHSRSSDWLS; Designed peptide) [compound 3] — lower, 11
- 7 (KMRAGRSNHA; Designed peptide) [compound 7] — lower, 11
- 80 (IESMDGIQHY; Designed peptide) [compound 80] — the same, 14
- 86 (RDVSHHNDVS; Designed peptide) [compound 86] — lower, 12
- 92 (GDQFMPFLVV; Designed peptide) [compound 92] — lower, 10
- 155 (VELFLLTSSC; Designed peptide) [compound 155] — higher, 42
- 156 (VVGFGRRSLF; Designed peptide) [compound 156] — higher, 19
- 157 (VRFHGWFAHV; Designed peptide) [compound 157] — higher, 18
- 158 (GARIRARGRD; Designed peptide) [compound 158] — higher, 17
- 160 (NRLWRRGMCI; Designed peptide) [compound 160] — lower, 13
- 161 (TVRCRIGHMR; Designed peptide) [compound 161] — lower, 12
- 162 (YKIRTRRTKR; Designed peptide) [compound 162] — lower, 12
- 163 (SVMVTRSLFG; Designed peptide) [compound 163] — lower, 12
- 164 (SFVKGPSRGI; Designed peptide) [compound 164] — lower, 12
- 165 (GSRHKNLIIP; Designed peptide) [compound 165] — lower, 12
- 166 (IGSRTGGFIG; Designed peptide) [compound 166] — lower, 12
- 167 (DDVRSGTISG; Designed peptide) [compound 167] — lower, 12
- 168 (VTFRNSGRTQ; Designed peptide) [compound 168] — lower, 11
- 169 (SLQHSTTGCR; Designed peptide) [compound 169] — lower, 11
- 170 (GTDTFHRSRA; Designed peptide) [compound 170] — lower, 11
- 171 (GVIAGSGHDL; Designed peptide) [compound 171] — lower, 11
- 172 (GCVGDLYCSA; Designed peptide) [compound 172] — lower, 11
- 173 (CRPGVRLGIF; Designed peptide) [compound 173] — lower, 11
- 174 (VRTHWFGSSR; Designed peptide) [compound 174] — lower, 10
- 175 (TGPIRDHSSL; Designed peptide) [compound 175] — lower, 10
- 176 (VGRASRWHIS; Designed peptide) [compound 176] — lower, 10
- 177 (TTSWGVVDSF; Designed peptide) [compound 177] — lower, 10
- 178 (TVRSLGITSV; Designed peptide) [compound 178] — lower, 10
- 179 (SKGRHAKRNH; Designed peptide) [compound 179] — lower, 10
- 180 (RIDHSVHGIL; Designed peptide) [compound 180] — lower, 10
- 181 (NVSHSVRKPI; Designed peptide) [compound 181] — lower, 10
- 182 (RRIDDRILGT; Designed peptide) [compound 182] — lower, 10
- 183 (GSSCVETDGH; Designed peptide) [compound 183] — lower, 10
- 184 (CWGIKRTSIA; Designed peptide) [compound 184] — lower, 10
- 185 (ESNGLHLPLR; Designed peptide) [compound 185] — lower, 10

Reference: patent US12535483B2, “Norovirus-binding peptide” (Kao Corporation, priority 2019, dated 2026)
